A mixed list of measured activities; the numbers were collected in NIAID ChemDB.

All rows: whole-cell or culture tests; organism: Mycobacterium tuberculosis

ECn: concentration that inhibits the pathogen or its effect by n%.

compound	tested at	cells	measure	mutations	method	strain	value
CCc1cc(C(N)=S)ccn1	-	-	MIC	-	-	H37Rv	~10 µg/mL
Cc1noc(NS(=O)(=O)c2ccc(N=NC3SC(=S)NC3=O)cc2)c1C	-	-	MIC bound	-	BACTEC	H37Rv	>12.5 µg/mL
C[C@@H](O)[C@H]1C(=O)N2C(C(=O)O)=C(SCC(=O)OC3CCCCC3)[C@H](C)[C@H]12	-	-	MIC	-	broth dilution	-	1–2 µg/mL
CCOC(=O)c1cnc2c(ccc3ncccc32)c1NCCCN(CC)CC	12.5 µg/mL	-	inhibition	-	BACTEC	H37Rv	0%
CN(C)c1ccc(C(=O)C2CC2c2ccc(Cl)cc2)cc1	-	-	MIC	-	broth dilution / agar	H37Rv	>12.5 µg/mL
COC1=C(C)C(C)(O)c2[nH]c3ccc(OC)cc3c2C1=O	-	-	MIC	-	-	H37Rv	>128 µM
C[C@H]1COc2c(N3CCN(C)CC3)c(F)cc3c(=O)c(C(=O)O)cn1c23	-	-	MIC	-	-	19 strains	16 µg/mL
CCc1conc1-c1ccc([N+](=O)[O-])o1	-	-	MIC	-	-	-	0.3 µg/mL
COc1c(CO)c(C)c(CC(C)OC(C)=O)c2[nH]c3ccc(C(=O)CC4=C(C)CC(C)(C)CC4)cc3c12	-	-	MIC	-	-	H37Rv	8 µM
CCCCCCCCCCCCNc1ccc(C(=O)C2CC2c2ccc(Cl)cc2)cc1	-	-	MIC	-	broth dilution / agar	H37Rv	>12.5 µg/mL
O=C(N/N=C/c1cn(-c2cccc(Cl)c2)nn1)c1ccncc1	-	-	MIC	-	resazurin	H37Rv	0.62 µg/mL
CN1CCN(c2cc3c(cc2F)c(=O)c(C(=O)O)cn3-c2ccc(F)cc2)CC1	-	-	MIC50	-	-	27 strains	4 µg/mL
CCc1sc(-c2nnc(COC(=O)CNC(=O)c3ccc4c(c3)OCO4)o2)cc1C	20 µM	-	inhibition	-	fluorescence	-	15%
O=C(O)c1c2n(c3cc([N+](=O)[O-])c(N4CCC5(CC4)OCCO5)cc3c1=O)CS2	-	-	MIC	-	agar	H37Rv	0.09 µM
O=C1c2cccc3c(Br)ccc(c23)C(=O)N1C1CCCCCCCCCCC1	-	-	MIC bound	-	resazurin	H37Rv	>6.25 µg/mL
NCCC[C@H](N)CC(=O)N[C@H]1CNC(=O)[C@H]([C@H]2C[C@H](O)NC(N)=N2)NC(=O)/C(=C/NC(N)=O)NC(=O)[C@H](CO)NC(=O)[C@H](CO)NC1=O	-	-	MIC	-	-	H37RV (VIM-R)	>40 µg/mL
O=C(O)c1c2n(c3cc(F)c(N4CCC(O)(c5ccc(Cl)cc5)CC4)cc3c1=O)CS2	-	-	MIC	-	agar	H37Rv	3.38 µM
NCCCC(N)CC(=O)NCC1NC(=O)C(CO)NC(=O)C(NC(=O)CC(N)CCCN)CNC(=O)C(C2CCN=C(N)N2)NC(=O)/C(=C/NC(N)=O)NC1=O	-	-	MIC	-	-	Isolate VIM-R/3	5 µg/mL
CC(C)N=c1cc2n(-c3cccnc3)c3ccccc3nc-2cc1Nc1ccc(Cl)cc1	-	-	MIC90	-	resazurin	H37Rv	0.57 µg/mL
CSc1ncc(C(=O)N2CCN(c3ncccc3NC(C)C)CC2)n1Cc1ccccc1	-	-	MIC bound	-	resazurin	H37Rv	>6.25 µg/mL
C[C@@H](O)[C@H]1C(=O)N2C(C(=O)O)=C(SCCO)S[C@H]12	-	-	MIC	-	broth dilution	-	2–4 µg/mL
CCCN(Cc1nnc(-c2ccco2)o1)C(=O)Cc1c(Cl)cccc1Cl	20 µM	-	inhibition	-	fluorescence	-	5%
COC(=O)CSC1=C(C(=O)O)N2C(=O)[C@H]([C@@H](C)O)[C@H]2[C@H]1C	-	-	MIC	-	broth dilution	-	1–2 µg/mL
CN[C@@H]1[C@H](O)[C@H](NC)[C@H]2O[C@@]3(O)C(=O)C[C@@H](C)O[C@H]3O[C@@H]2[C@H]1O	-	-	MIC	-	BACTEC	H37Rv	≥12.8 µg/mL
CCCCCCCn1c2ccccc2c2cc(CO)c(C)cc21	-	-	MIC	-	-	H37Rv	>128 µM
Cc1cc(C)c2c(=O)n(CC(=O)OCCN3CCN(c4ccccc4)CC3)sc2n1	12.5 µg/mL	-	inhibition	-	BACTEC	H37Rv	0%
NC[C@H]1O[C@H](O[C@H]2[C@H](O)[C@@H](O[C@H]3O[C@H](CO)[C@@H](O)[C@H](N)[C@H]3O)[C@H](N)C[C@@H]2N)[C@H](O)[C@@H](O)[C@@H]1O	-	-	MIC	-	fluorescence	-	1.7 µM
C[C@@H](O)[C@H]1C(=O)N2C(C(=O)O)=C(SC3CN(C4=NCCS4)C3)S[C@H]12	-	-	MIC	-	broth dilution	-	16–32 µg/mL
CCc1ccc2c(c1)[nH]c1ccccc12	-	-	MIC	-	-	H37Rv	>128 µM
CC1CCc2ccccc2N1Cc1nc(-c2ccsc2)no1	-	-	MIC	-	fluorescence	-	2.2 µM
NC(=O)c1cnccn1	25 µg/mL	-	inhibition	-	agar	592 strains	85%
O=Cc1ccc(C=O)o1	12.5 µg/mL	-	inhibition	-	BACTEC	H37Rv	54%
Cc1cc(C)c2c(=O)n(CN3CCN(C/C=C/c4ccccc4)CC3)sc2n1	-	-	EC50	-	BACTEC	H37Rv	>12.5 µg/mL
Cc1nc2[nH]c(=O)[nH]c2c(=O)[nH]1	12.5 µg/mL	-	inhibition	-	BACTEC	H37Rv	-8%
O=C(O)c1c2n(c3cc(F)c(N4CCC5(CC4)OCCO5)cc3c1=O)CS2	-	-	MIC	-	agar	H37Rv	0.99 µM
O=[N+]([O-])c1ccc(-c2ccon2)o1	-	-	MIC	-	-	-	1 µg/mL
CC(C)[C@@]1(NC(=O)[C@@H]2C=C3c4cccc5[nH]cc(c45)C[C@H]3N(C)C2)O[C@@]2(O)[C@@H]3CCCN3C(=O)[C@H](Cc3ccccc3)N2C1=O	12.8 µg/mL	-	inhibition	-	BACTEC	H37Rv	16%
COc1ccc2nc3ccccc3c(Nc3ccc(C(C)=O)cc3)c2c1	-	-	EC50	-	-	H37Rv	>6.25 µg/mL
Cc1cc2c(cc1O)[nH]c1ccccc12	-	-	MIC	-	-	H37Rv	105 µM
O=C(NNC(=S)Nc1ccc([N+](=O)[O-])cc1)c1ccncc1	-	-	MIC	-	-	WT	0.63 µM
C=CCN(CC=C)CC(=O)Nn1c(C)ccc1C	-	-	MIC bound	-	BACTEC	H37Rv	>12.5 µg/mL
O=C(NNC(=S)Nc1ccc(Cl)cc1)c1ccncc1	-	-	MIC	-	-	INH resistant	7.62 µM
COc1ccc2nc3ccccc3c(Nc3ccc(S(=O)(=O)Nc4nc(C)cc(C)n4)cc3)c2c1	-	-	EC50	-	-	H37Rv	<6.25 µg/mL
O=Cc1cc2c(cc1O)[nH]c1cc(O)ccc12	-	-	MIC	-	-	H37Rv	69 µM
COc1cc(O)c(C(C)c2ccccc2)cc1N=NC(N)=O	-	-	MIC bound	-	BACTEC	H37Rv	>12.5 µg/mL
CC1=CCC[C@@]2(C)O[C@H]2[C@H]2OC(=O)[C@@H](C)[C@@H]2CC1	-	-	MIC	-	-	-	128 µg/mL
Nc1ccc(C(=O)O)c(O)c1	-	-	EC50	-	agar	35 strains	<5 µg/mL
O=C(CC1Sc2ccccc2NC1=O)NNc1ccc(Cl)c(Cl)c1	-	-	MIC bound	-	BACTEC	H37Rv	>12.5 µg/mL
O=C(O)c1c2n(c3cc(F)c(N4CCN(C(c5ccccc5)c5ccc(Cl)cc5)CC4)cc3c1=O)CS2	-	-	MIC	-	agar	H37Rv	11.66 µM
CC1COc2c(N3CCN(C)CC3)c(F)cc3c(=O)c(C(=O)O)cn1c23	-	-	MIC	-	-	T10904	1 µg/mL
COc1ccc2nc3ccccc3c(Nc3ccc(S(=O)(=O)Nc4cc(C)on4)cc3)c2c1	-	-	EC50	-	-	H37Rv	<6.25 µg/mL
Cc1conc1-c1ccc([N+](=O)[O-])o1	-	-	MIC	-	-	-	1 µg/mL
COc1cc(C(=O)O)cc2c1[nH]c1ccccc12	-	-	MIC	-	-	H37Rv	>128 µM
O=[N+]([O-])c1ccc(N=Nc2c(Cl)c(O)c3ccccc3c2O)nc1	-	-	MIC	-	-	EMB-R	>12.5 µg/mL
NC(=O)c1cccn2cc(-c3cccc(-c4cncc(OC[C@H]5CCCO5)c4)c3)nc12	-	-	EC50	-	resazurin	H37Rv (ATCC 27294)	0.78 µM
COc1ccc2c(c1)c1cc(CO)c(C)cc1n2C	-	-	MIC	-	-	H37Rv	>128 µM
COc1ccc2nc3ccccc3c(Nc3ccc(S(=O)(=O)NC(C)=O)cc3)c2c1	-	-	EC50	-	-	H37Rv	>6.25 µg/mL
Cc1ccc(NC(=S)NNC(=O)c2ccncc2)c(C)c1	-	-	MIC	-	-	INH resistant	2.59 µM
O=C(N=Nc1c(Cl)c(O)c2ccccc2c1O)c1ccccc1O	-	VERO	MIC	-	BACTEC	H37Rv	1.6 µg/mL
CC(C)N=c1cc2n(-c3ccc(Cl)cc3)c3ccccc3nc-2cc1Nc1cccnc1	-	-	MIC90	-	resazurin	H37Rv	0.07 µg/mL
CC(C)(C)NC(=O)C1c2ccccc2CCN1c1cc2c(=O)c(C(=O)O)c3n(c2cc1F)CS3	-	-	MIC	MDR-TB	agar	H37Rv	3.24 µM
COc1ccc2nc3cc(Cl)ccc3c(Nc3ccc(/C(N)=N/NC(N)=S)cc3)c2c1	-	-	EC50	-	-	H37Rv	<6.25 µg/mL
CN(C)CCC(=O)C(=Cc1ccco1)C(=O)CCN(C)C	-	-	MIC bound	-	resazurin	H37Rv	>6.25 µg/mL
COc1ccc2nc3cc(Cl)ccc3c(Nc3ccc(S(=O)(=O)NC(C)=O)cc3)c2c1	-	-	EC50	-	-	H37Rv	>6.25 µg/mL
CCOC(=O)C1=C(/C=C/c2cccc(Cl)c2)O/C(=C\c2cccc(Cl)c2)C1=O	12.5 µg/mL	-	inhibition	-	BACTEC	H37Rv	18%
C=C[C@H](OC(C)=O)c1ccc(OC(C)=O)cc1	-	-	MIC	-	-	H37Ra	0.1 µg/mL
O=C(O)c1c2n(c3cc(F)c(N4CCC(N5CCCCC5)CC4)cc3c1=O)CS2	-	-	MIC	-	agar	H37Rv	7.49 µM
N#CC1CC(c2ccc([N+](=O)[O-])o2)=NO1	-	-	MIC	-	-	-	3 µg/mL
CC(C)N=c1cc2n(-c3ccc(Cl)cc3)ccnc-2cc1Nc1ccc(Cl)cc1	-	-	MIC90	-	resazurin	H37Rv	18.89 µg/mL
S=c1nc(-c2nc(=S)[nH]c3c2CCCCC3)c2c([nH]1)CCCCC2	12.5 µg/mL	-	inhibition	-	BACTEC	H37Rv	0%
CCCCCCCC/C=C\CCCCCCCCNc1ccc(C(=O)C2CC2c2ccc(Cl)cc2)cc1	-	-	MIC	-	broth dilution / agar	H37Rv	>12.5 µg/mL
Cc1cc(Br)ccc1NC(=S)NNC(=O)c1ccncc1	-	-	MIC	-	-	WT	2.13 µM
CCOC(=O)C(NC(=O)c1cccc(Cl)c1)(N1CCN(c2cc3c(cc2F)c(=O)c(C(=O)O)cn3CC)CC1)C(F)(F)F	-	-	MIC bound	-	resazurin	H37Rv	<6.25 µg/mL
O=C(O)c1c2n(c3cc(F)c(N4CCN(Cc5ccc6c(c5)OCO6)CC4)cc3c1=O)CS2	-	-	MIC	-	agar	H37Rv	1.66 µM
COc1ccc2nc3ccccc3c(Nc3ccc(S(=O)(=O)Nc4nccs4)cc3)c2c1	-	-	EC50	-	-	H37Rv	<6.25 µg/mL
O=C(c1ccc(N2CCCC2)cc1)C1CC1c1ccc(Cl)cc1	-	-	MIC	-	broth dilution / agar	H37Rv	>12.5 µg/mL
Cc1cc(C)c2c(=O)n(CC(O)CN3CCN(c4ccccn4)CC3)sc2n1	-	-	EC50	-	BACTEC	H37Rv	>12.5 µg/mL
CN1CCN(c2ccc(C(=O)C3CC3c3ccc(Cl)cc3)cc2)CC1	-	-	MIC	-	broth dilution / agar	H37Rv	3.25 µg/mL
CC1(C)OCC(C2OC3OC(C)(C)OC3C2NC(=O)OCc2ccccc2)O1	-	-	MIC bound	-	BACTEC	H37Rv	>12.5 µg/mL
Cc1cc(C)c2c(OCCCCN3CCN(c4ccccn4)CC3)nsc2n1	12.5 µg/mL	-	inhibition	-	BACTEC	H37Rv	12%
COc1ccc2c(c1)[nH]c1c3ccoc3c(C=O)cc21	-	-	MIC	-	-	H37Rv	>128 µM
Cc1cc(C)c2c(=O)n(CC(O)CN3CCN(c4ccccc4)CC3)sc2n1	12.5 µg/mL	-	inhibition	-	BACTEC	H37Rv	5%
Nc1ccn([C@@H]2O[C@H](C(O[C@@H]3O[C@H](CO)[C@@H](O)[C@H](N)[C@H]3O)[C@@H](O)[C@@H](O)[C@@H](O)[C@@H](O)CO)[C@@H](N)[C@H](O)[C@H]2O)c(=O)n1	-	-	MIC	-	-	TAC-R	12.5 µg/mL
Cc1cc(C)c2c(=O)n(CC(O)CN3CCN(c4ncccn4)CC3)sc2n1	-	-	EC50	-	BACTEC	H37Rv	>12.5 µg/mL
Cc1cc2c(c3c1c(=O)c1ccccc1n3C)C=CC(C)(C)O2	-	-	MIC	-	-	CS-R	6.3 µg/mL
NNC(=O)c1ccncc1	-	-	MIC	-	-	WT	0.72 µM

The last 5 rows once more:

compound,tested at,cells,measure,mutations,method,strain,value
Cc1cc(C)c2c(=O)n(CC(O)CN3CCN(c4ccccc4)CC3)sc2n1,12.5 µg/mL,-,inhibition,-,BACTEC,H37Rv,5%
Nc1ccn([C@@H]2O[C@H](C(O[C@@H]3O[C@H](CO)[C@@H](O)[C@H](N)[C@H]3O)[C@@H](O)[C@@H](O)[C@@H](O)[C@@H](O)CO)[C@@H](N)[C@H](O)[C@H]2O)c(=O)n1,-,-,MIC,-,-,TAC-R,12.5 µg/mL
Cc1cc(C)c2c(=O)n(CC(O)CN3CCN(c4ncccn4)CC3)sc2n1,-,-,EC50,-,BACTEC,H37Rv,>12.5 µg/mL
Cc1cc2c(c3c1c(=O)c1ccccc1n3C)C=CC(C)(C)O2,-,-,MIC,-,-,CS-R,6.3 µg/mL
NNC(=O)c1ccncc1,-,-,MIC,-,-,WT,0.72 µM

Inhibition is in % at the dose shown (toxicity tests: loss of growth or viability). a–b is a range or a potency band. Rows are shuffled and stem from different studies. MIC bound comes from a single tested concentration. A number after MIC or MFC names an inhibition level or a share of isolates. An empty or dashed field is not shown.